Measured values from several laboratories, pooled; numbers as filed in NIAID ChemDB.

All rows: target-level tests; agent: HIV; protein: Reverse transcriptase; measure: IC50

ICn is the concentration giving n% inhibition.

structure,read by,changes,value
CCN1c2nc(Cl)ccc2NC(=O)c2cc(CSc3ccccc3)cnc21,RT activity,K103N,6.23 µM
Nc1nc2c(ncn2[C@H]2CC[C@@H](COP(=O)(O)OP(=O)(O)OP(=O)(O)O)O2)c(=O)[nH]1,nucleotide incorporation / radiometric,RT-F116Y Q151M,0.071 µM
Nc1ccn([C@H]2CC[C@@H](COP(=O)(O)OP(=O)(O)OP(=O)(O)OP(=O)(O)OC[C@@H]3CC[C@H](n4ccc(N)nc4=O)O3)O2)c(=O)n1,nucleotide incorporation / radiometric,RT-M41L T215Y,1.1 µM
Fc1cccc(F)c1CC(=S)NCCc1ccccn1,radiometric,K103N,>100 µM
Cc1ccnc2c1NC(=O)c1cc(N)c[nH+]c1N2C1CC1,RT activity,K103N,62.1 µM
Nc1ncnc2c1ccn2[C@H]1C[C@H](F)[C@@H](COP(=O)(O)OP(=O)(O)OP(=O)(O)O)O1,nucleotide incorporation / radiometric,RT-W88G,0.31 µM
CC(C)OC(=O)c1cc(NC(=S)OC(C)C)ccc1Cl,radiometric,Y181I,71.3 µM
Nc1nc2c(ncn2[C@H]2CC[C@@H](COP(=O)(O)OP(=O)(O)OP(=O)(O)O)O2)c(=O)[nH]1,nucleotide incorporation,RT-F61L,0.06 µM
Cc1ccnc2c1NC(=O)c1cc(N)cnc1N2C1CC1,RT activity,K103N,97 µM
Nc1ncnc2c1ncn2[C@H]1CC[C@@H](COP(=O)(O)OP(=O)(O)OP(=O)(O)O)O1,nucleotide incorporation / radiometric,RT-F116Y Q151M,19 µM
Fc1cccc(F)c1CC(=S)NCc1ccccn1,radiometric,Y181I,>100 µM
Nc1nc2c(ncn2[C@H]2CC[C@@H](COP(=O)(O)OP(=O)(O)OP(=O)(O)O)O2)c(=O)[nH]1,nucleotide incorporation / radiometric,RT-K65R,0.49 µM
CCN1c2nc(Cl)ccc2NC(=O)c2cc(CSc3cccc(C)c3)cnc21,RT activity,Y181C,0.00463 µM
S=C(Cc1ccccn1)NCc1ccccc1Cl,radiometric,Y181I,>100 µM
CCN1c2ncc(CSc3cccc(OC)c3)cc2C(=O)Nc2c(C)cc(Cl)nc21,RT activity,Y181C,0.0593 µM
Cc1cc(Cc2ccc(Cl)c(Oc3cc(F)cc(C#N)c3)c2F)n[nH]c1=O,,G190A,0.001 µM
CNc1ccccc1C(=O)O[C@H]1[C@@H](O)[C@H](n2cnc3c(N)ncnc32)O[C@@H]1COP(=O)(O)OP(=O)(O)OP(=O)(O)OP(=O)(O)OC[C@@H]1CC[C@H](n2cnc3c(=O)[nH]c(N)nc32)O1,nucleotide incorporation / radiometric,RT-M41L T215Y,3.8 µM

Blank or dashed fields: not listed here. Lines come from different laboratories, so protocols vary.